Measured values from several laboratories, pooled; numbers as filed in NIAID ChemDB.

Common to all: growth or infection tests; species: Cryptococcus neoformans

ECn is the concentration giving n% inhibition of infection, replication or growth. An empty or dashed field is not shown. Conditions beyond the fields shown may differ between rows. MIC50, MIC90 and the like: level of inhibition, or share of isolates inhibited.

compound,read by,endpoint,strain or isolate,value
CC(=O)c1ccc2c(c1O)C=CC(C)(CO)O2,-,MIC,-,50 µg/mL
C[C@H]1[C@H](O)[C@@H](C)/C=C/C=C/C=C/C=C/C=C/C=C/C=C/[C@H](O[C@@H]2O[C@H](C)[C@@H](O)[C@H](N)[C@@H]2O)C[C@@H]2O[C@](O)(C[C@@H](O)C[C@@H](O)CC[C@H](O)[C@@H](O)C[C@@H](O)CC(=O)O[C@H]1C)C[C@H](O)[C@H]2C(=O)O,-,Geometric mean MIC,9 strains,0.74 µg/mL
CCCCC(Cn1ccnc1)c1ccc(Cl)cc1Cl,-,MIC,-,<1 µg/mL
C[C@H]1[C@H](O)[C@@H](C)/C=C/C=C/C=C/C=C/C=C/C=C/C=C/[C@H](O[C@@H]2O[C@H](C)[C@@H](O)[C@H](N)[C@@H]2O)C[C@@H]2O[C@](O)(C[C@@H](O)C[C@@H](O)CC[C@H](O)[C@@H](O)C[C@@H](O)CC(=O)O[C@H]1C)C[C@H](O)[C@H]2C(=O)O,absorbance,MIC,-,0.16 µg/mL
Clc1ccc(CCC(Cn2ccnc2)c2ccc(Cl)cc2Cl)cc1,-,MIC,-,<1 µg/mL
C[C@@H](N1CCN(Cc2cn(Cc3ccc(Cl)cc3)c3ccccc23)CC1)[C@](O)(Cn1cncn1)c1ccc(F)cc1F,resazurin,MIC80,ATCC 36556,>128 µg/mL
CCCCCCC(Cn1ccnc1)c1ccc(Br)cc1,-,MIC,-,<1 µg/mL
Clc1ccc(C(CCc2ccc(Br)cc2)Cn2ccnc2)c(Cl)c1,-,MIC,-,<1 µg/mL
COc1ccccc1CN(Cc1ccc(-c2ccccc2)cc1)n1ccnc1,-,MIC,-,5.5 µM
CC(C)=CCCCCCNC1NCCC2c3ccccc3CCN12,-,MIC,NFI3102,4 µg/mL
Cc1ccc(CN(Cc2ccc(-c3ccccc3)cc2)n2ccnc2)cc1,-,MIC,-,200 µM
O=C1S/C(=C\c2ccccn2)C(=O)N1CC(O)(Cn1nccn1)c1ccc(F)cc1F,-,MIC80,CNCYP51,9.02 µg/mL
CC1(C)CC[C@]2(C)CC=C3[C@]4(C)CCC5C(C)(C)[C@@H](O)CC[C@]5(C)C4CC[C@@]3(C)C2C1,absorbance,MIC,-,>250 µg/mL
C[C@@H](N1CCN(Cc2cn(Cc3ccc(Cl)cc3Cl)c3c(F)cccc23)CC1)[C@](O)(Cn1cncn1)c1ccc(F)cc1F,resazurin,MIC80,ATCC 36556,>128 µg/mL
Clc1ccc(CC(Cn2ccnc2)c2ccccc2Br)cc1,-,MIC,-,<1 µg/mL
C[C@@H](N1CCN(Cc2cn(Cc3ccc(Cl)cc3)c3c(Cl)cccc23)CC1)[C@](O)(Cn1cncn1)c1ccc(F)cc1F,resazurin,MIC80,ATCC 36556,>128 µg/mL
Clc1ccc(COC(Cn2ccnc2)c2ccc(Cl)cc2Cl)c(Cl)c1,-,Mean MIC,12 strains,0.24 µg/mL
C[C@@H](N1CCN(Cc2cn(Cc3ccc(C(F)(F)F)cc3)c3c(F)cccc23)CC1)[C@](O)(Cn1cncn1)c1ccc(F)cc1F,resazurin,MIC80,ATCC 36556,>128 µg/mL
Oc1ccccc1N=Cc1ccc2c(c1)OCO2,-,MIC99,VM-MCMMPI,5.7 µg/mL
C[C@@H](c1ncncc1F)[C@](O)(Cn1cncn1)c1ccc(F)cc1F,-,MIC50,-,0.015 µg/mL
Cn1nc(Cc2ccc(Cl)cc2)c2ccccc2c1=O,broth dilution,MIC80,Clinical isolate (IM 042074),7.8 µg/mL
C[C@@H](N1CCN(Cc2cn(Cc3ccc(F)cc3F)c3c(C#N)cccc23)CC1)[C@](O)(Cn1cncn1)c1ccc(F)cc1F,resazurin,MIC80,ATCC 36556,>128 µg/mL
CCOC(=O)c1c(C)nc(NCCCCNc2ccnc3cc(Cl)ccc23)nc1-c1ccccc1,-,MIC99,96806,45.3 µg/mL
CCC(C)CC(C)CCCCCCCCC(=O)N[C@H]1C[C@@H](O)[C@H](NCCN)NC(=O)[C@@H]2[C@@H](O)CCN2C(=O)[C@H]([C@H](O)CCN)NC(=O)[C@H]([C@H](O)[C@@H](O)c2ccc(O)cc2)NC(=O)[C@@H]2C[C@@H](O)CN2C(=O)[C@H]([C@@H](C)O)NC1=O,-,MIC50,19 strains,32 µg/mL
CCc1ccc(C2CC(=NOCc3ccccc3)CC(c3ccc(CC)cc3)N2C)cc1,-,MIC,-,50 µg/mL
CC(=O)c1c(O)cc(O)c(C(C)=O)c1O,-,EC50,-,>20 µg/mL
CC(C)=C[C@H]1C[C@](C)(O)C2C3CCC4[C@@]5(C)CCC[C@](C)(O[C@H]6OC[C@H](O)[C@H](OC7O[C@H](CO)[C@@H](O)[C@H](O)[C@H]7O)[C@H]6O[C@H]6C[C@H](CO)[C@@H](O)[C@@H]6O)C5CC[C@@]4(C)[C@@]34CO[C@@]2(C4)O1,-,MIC,-,50 µg/mL
C[C@H]1[C@H](O)[C@@H](C)/C=C/C=C/C=C/C=C/C=C/C=C/C=C/[C@H](O[C@@H]2O[C@H](C)[C@@H](O)[C@H](N)[C@@H]2O)C[C@@H]2O[C@](O)(C[C@@H](O)C[C@@H](O)CC[C@H](O)[C@@H](O)C[C@@H](O)CC(=O)O[C@H]1C)C[C@H](O)[C@H]2C(=O)O,-,MIC50,12 strains,0.06 µg/mL
Cc1ccccc1/C=C1\SC(=O)N(CC(O)(Cn2nccn2)c2ccc(F)cc2F)C1=O,-,MIC80,CNCYP51,>100 µg/mL
Oc1ccccc1N=Cc1ccc(F)cc1,-,MIC99,WP,8 µg/mL
Cc1ccccc1C(Cc1c(Cl)cccc1Cl)Cn1ccnc1,-,MIC,-,100 µg/mL
Oc1ccccc1N=Cc1ccccc1,broth dilution,MIC,GM,5 µg/mL
C[C@@H](SC1COC(/C=C/C=C/c2ccc(F)cc2F)OC1)[C@](O)(Cn1cncn1)c1ccc(F)cc1F,-,MIC,TIMM0362,<0.008 µg/mL
CCCCCC(Cn1ccnc1)c1ccc(Br)cc1,-,MIC,-,<1 µg/mL
C[C@@H](N1CCN(Cc2cn(Cc3cccc(C(F)(F)F)c3)c3ccccc23)CC1)[C@](O)(Cn1cncn1)c1ccc(F)cc1F,resazurin,MIC80,ATCC 36556,>128 µg/mL
CN1CCC(n2cc(CN3CCc4sccc4C3)nn2)CC1,agar,MIC,NCIM576,>200 µg/mL
CCn1c2c(c3ccccc31)C(=O)c1cc(C)cnc1C2=O,-,MIC,-,>200 µg/mL
O=C1S/C(=C\c2ccc(Cl)cc2Cl)C(=O)N1CC(O)(Cn1nccn1)c1ccc(F)cc1F,-,MIC80,CNCYP51,0.12 µg/mL
CCOC(=O)c1c(C)nc(NCCCCNc2ccnc3cc(Cl)ccc23)nc1-c1ccc(F)cc1,-,MIC99,96806,45.3 µg/mL
C[C@@H](N1CCN(Cc2cn(-c3ccc(F)cc3)c3ccccc23)CC1)[C@](O)(Cn1cncn1)c1ccc(F)cc1F,resazurin,MIC80,ATCC 36556,>128 µg/mL
Nc1[nH]c(=O)ncc1F,-,MIC50,37 strains,4 µg/mL
Oc1ccccc1C=Nc1ccccc1O,-,MIC99,LMM 820,4 µg/mL
c1ccc(N2CCC(n3cc(CN4CCc5sccc5C4)nn3)CC2)cc1,agar,MIC,NCIM576,90 µg/mL
C[C@H]1[C@H](O)[C@@H](C)/C=C/C=C/C=C/C=C/C=C/C=C/C=C/[C@H](O[C@@H]2O[C@H](C)[C@@H](O)[C@H](N)[C@@H]2O)C[C@@H]2O[C@](O)(C[C@@H](O)C[C@@H](O)CC[C@H](O)[C@@H](O)C[C@@H](O)CC(=O)O[C@H]1C)C[C@H](O)[C@H]2C(=O)O,visual reading,MFC,MTCC 4406,1 µg/mL
CC(CCC(=O)NCCCNCCCCNCCCN)[C@H]1CCC2C3CC[C@@H]4C[C@H](OS(=O)(=O)O)CC[C@]4(C)C3C[C@H](C)[C@@]21C,-,MIC,90012,50 µg/mL
CC(C)CC(=O)c1c(O)cc(O)c(C=O)c1O,-,EC50,-,>20 µg/mL
Clc1ccc(C(Cc2c(Cl)cccc2Cl)Cn2ccnc2)c(Cl)c1,-,MIC,-,<1 µg/mL
O=C1S/C(=C\c2ccoc2)C(=O)N1CC(O)(Cn1nccn1)c1ccc(F)cc1F,-,MIC80,-,2.31 µg/mL
C=C1CO[C@H]2[C@@H](C)OC(OC[C@@]34C[C@H]5[C@H](C)CC[C@@H]5[C@@]5(C=O)C[C@@H]3C=C(C(C)C)[C@@]45C(=O)O)C[C@@H]12,-,MIC90,20 strains,0.25 µg/mL
Cc1c(O)c(C=O)c(O)c(C=O)c1O,-,EC50,-,>20 µg/mL
COc1ccc2c(c1)CCN1C(NCCCCCCC(C)C)NCCC21,-,MIC80,NFI3102,1 µg/mL
CCCCCCCCC(Cn1ccnc1)c1c(Cl)cccc1Cl,-,MIC,-,10 µg/mL
c1ccc(CN(Cc2ccc(-c3ccccc3)cc2)n2ccnc2)cc1,-,MIC,-,200 µM
Oc1ccccc1N=Cc1cccc(O)c1O,broth dilution,MIC,5396,4 µg/mL
CC(C)=CCc1c(O)c(C=O)c(O)c(C(=O)/C(C)=C/O)c1O,-,EC50,-,>20 µg/mL
CCCCCCCCOc1ccc(C(=O)NC2C[C@@H](O)[C@@H](O)NC(=O)C3[C@@H](O)[C@@H](C)CN3C(=O)C(C(C)O)NC(=O)C([C@H](O)[C@@H](O)c3ccc(O)cc3)NC(=O)C3C[C@@H](O)CN3C(=O)C(C(C)O)NC2=O)cc1,-,MIC50,12 strains,>40 µg/mL
COc1ccc2c(c1)CCN1C(NCCCCCC=C(C)C)NCCC21,-,MIC80,NFI3102,8 µg/mL
CCCCCCCCC(Cn1ccnc1)c1ccc(Cl)cc1Cl,-,MIC,-,<1 µg/mL
Fc1ccc(CN(Cc2ccc(-c3ccccc3)cc2)n2ccnc2)c(F)c1,-,MIC,-,33 µM
CCCCC(Cn1ccnc1)c1ccc(Br)cc1Br,-,MIC,-,<1 µg/mL
CC(C)CCCCCCNC1NCCC2c3ccccc3CCN12,-,MIC,NFI3102,2 µg/mL
CCCCC(Cn1ccnc1)c1ccc(F)cc1,-,MIC,-,<1 µg/mL
C[C@@H](CC1COC(/C=C/C=C/c2ccc(C#N)cc2F)OC1)[C@](O)(Cn1cncn1)c1ccc(F)cc1F,-,MIC,TIMM0362,0.008 µg/mL

Repeating the first 4 entries:

compound	read by	endpoint	strain or isolate	value
CC(=O)c1ccc2c(c1O)C=CC(C)(CO)O2	-	MIC	-	50 µg/mL
C[C@H]1[C@H](O)[C@@H](C)/C=C/C=C/C=C/C=C/C=C/C=C/C=C/[C@H](O[C@@H]2O[C@H](C)[C@@H](O)[C@H](N)[C@@H]2O)C[C@@H]2O[C@](O)(C[C@@H](O)C[C@@H](O)CC[C@H](O)[C@@H](O)C[C@@H](O)CC(=O)O[C@H]1C)C[C@H](O)[C@H]2C(=O)O	-	Geometric mean MIC	9 strains	0.74 µg/mL
CCCCC(Cn1ccnc1)c1ccc(Cl)cc1Cl	-	MIC	-	<1 µg/mL
C[C@H]1[C@H](O)[C@@H](C)/C=C/C=C/C=C/C=C/C=C/C=C/C=C/[C@H](O[C@@H]2O[C@H](C)[C@@H](O)[C@H](N)[C@@H]2O)C[C@@H]2O[C@](O)(C[C@@H](O)C[C@@H](O)CC[C@H](O)[C@@H](O)C[C@@H](O)CC(=O)O[C@H]1C)C[C@H](O)[C@H]2C(=O)O	absorbance	MIC	-	0.16 µg/mL